Reference: PubChem BioAssay AID624099 (ICCB-Longwood, 2012)

Test: 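Host factors E2 relies on to silence an HPV18 LCR reporter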 (primary screen)
System: human C33A cervical carcinoma cells (HPV-negative) stably expressing BPV1 E2 and an HPV18 LCR luciferase reporter
Knock-down reagent: siRNA pool against human genes, 40 nM
Duration: 72 h
Read-out: 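Per-well luciferase luminescence, z-scored on each plate against the plate mean and SD with control wells left out, then averaged across three replicate plates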
Reading the numbers: mean z-score and z-score: higher = stronger reporter signal, weaker E2 silencing
Active means: 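Hit if mean z-score reaches 2 and two or more of three replicate z-scores also reach 2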
The whole screen tested about 21,000 reagents; shown is a part drawn at random. Over the whole deposit, 497 (2.4%) are marked active. 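Higher z means weaker E2 silencing; only reporter increases were scored, and knock-downs that hurt cell survival may mask genuine repressor factors.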 Unmarked entries are inactive.

target gene | PubChem SID | mean z-score | z-score, replicate A | z-score, replicate B | z-score, replicate C
OR5P3 | SID134313897 | -0.91 | -0.64 | -0.95 | -1.12
AGO1 | SID134310557 | -1.38 | -1 | -1.52 | -1.63
SST | SID134323929 | -1.28 | -1.22 | -1.31 | -1.31
HSD17B1 | SID134314444 | -0.57 | -0.7 | -0.18 | -0.83
OR7C2 | SID134317068 | 0.4 | 0.91 | 0.12 | 0.17
KLHL27 | SID134316459 | -1.2 | -1.18 | -1.2 | -1.23
TGIF1 | SID134315746 | -0.98 | -0.97 | -0.98 | -0.99
EPB41L4A-AS1 | SID134319233 | 0.05 | -0.16 | 0.23 | 0.08
H2BW2 | SID134326168 | 0.06 | -0.15 | -0.09 | 0.41
TUBB2B | SID134321701 | -1.44 | -1.41 | -1.38 | -1.52
ADCK5 | SID56479281 | 0.48 | 0 | 0.84 | 0.6
LINC03042 | SID134329562 | -0.28 | -0.54 | -1.03 | 0.74
ARFGAP1 | SID134317550 | -0.43 | -0.23 | -0.58 | -0.48
VSIG2 | SID134320614 | 0.63 | 0.64 | 0.74 | 0.51
NPHP4 | SID134317138 | -0.4 | -0.48 | -0.43 | -0.31
NDUFB4 | SID134329967 | 0.07 | 0.16 | 0.02 | 0.04
LYG2 | SID134323003 | -1.8 | -1.57 | -1.83 | -1.99
FLT3LG | SID134323909 | 1.05 | 0.97 | 1.08 | 1.12
CHP1 | SID134325017 | -0.24 | -0.46 | -0.03 | -0.23
GSTZ1 | SID134315639 | -0.56 | -0.34 | -0.73 | -0.6
SHB | SID134323485 | 1.24 | 1.58 | 1.35 | 0.78
TENT4A | SID134314518 | 1.27 | 1.51 | 1.3 | 1.01
BAG2 | SID134316270 | 0.24 | -0.06 | 0.21 | 0.58

Part of the list above in another layout:
{"target gene": "NDUFB4", "PubChem SID": "SID134329967", "mean z-score": 0.07, "z-score, replicate A": 0.16, "z-score, replicate B": 0.02, "z-score, replicate C": 0.04}
{"target gene": "LYG2", "PubChem SID": "SID134323003", "mean z-score": -1.8, "z-score, replicate A": -1.57, "z-score, replicate B": -1.83, "z-score, replicate C": -1.99}
